The supplement of paper PMC9931576
Where a chain is given by its changes, count along the chain named. Human monoclonal antibodies against the spike receptor-binding domain (heavy:light variable regions). IC50 against pseudoviruses bearing the spike of naturally observed variants; lower = stronger; >10 µg/ml means not reached at the top dose. No active / inactive call. The stated detection limit is 0.0005 µg/ml; values near or below 0.001 µg/ml lie at the floor of the assay.

B1: BD56-1352 (protein)
chain 1: EVQLVESGGGLIQPGGSLRLSCAASGFTVSSNYMSWVRQAPGKGLEWVSVIYSGGSTFYADSVKGRFTISRDNSENTLYLQMNSLRAEDTAVYYCARENLGEPNYGFDYWGQGTLVTVSS
chain 2: DIQMTQSPSSLSASVGDRVTITCQASQDINKYLNWYQQKPGKAPKLLIYDASNLETGVPSRFSGSGSGTDFTFTITSLQPEDIGTYYCQQYDNLPPWTFGQGTKVEIK
B2: BD56-1358 (protein)
chain 1: QVQLVQSGAEVKKPGASVKVSCKTSAYTFTGYFFHWVRQAPGQGLEWMGWIDPNSGGTNYAQKFQGRVTMTRDTSISTAYMELSRLRSDDTAVYYCALSFLEWLKPNYWGQGTLVTVSS
chain 2: DIQMTQSPSSLSASVGDRVTITCQASQDISNYLNWYQQKPGKAPKLLISDASNLETGVPSRFSGSGSGTDFTFTISSLQPEDIATYYCQQYDNLPFTFGPGTKVDIK
B3: BD56-1360 (protein)
chain 1: QVQLQESGPGLVKPSGTLSLTCAVSGGSISSSHWWSWVRQPPGKGLEWIGQIYHSGSTNYNPSLKSRVTISVDKSRNQFSLKVSSVTAADTAVYYCARLDGSSWSYFDYWGQGTLVTVSS
chain 2: DIVMTQTPLSLSVTPGQPASISCKSSQSLLHSDGKAYLYWYLQKPGQSPQLLIYEVSSRFSGVPDRFSGSGSGTDFTLKISRVEAEDVGVYYCMQGLYLPHTFGQGTKLEIK
B4: BD56-1367 (protein)
chain 1: QITLKESGPTLVKPTQTLTLTCTFSGFSLSTSGVGVGWIRQPPGKALEWLALIYWDDNKLYSPSLMSRLTLTKDTSKNQVVLSMTNMDAADTATYYCAHKYQLAAFDYWGQGTLVTVSS
chain 2: DIHMTQSPSSLSASVGDRVTITCQASQDITNYLNWYQQKPGKAPKLLIYDASNLQTGVPSRFSGSGSGTHFTFTISSLQPEDIATYYCQQYDNLWTFGQGTKVEIK
B5: BD56-1375 (protein)
chain 1: EVQLVESGGGLVQPGRSLRLSCAVSGFTFDDYAMHWVRQAPGKGLEWVSGISWNGDKTGYADSVKGRFTISRDNAKNSLYLQMNSLRPEDTAFYYCAKDSGVGGGDRPYFYYGMDVWGQGTTVTVSS
chain 2: QSALTQPRSVSGSPGQSVTISCTGTSSDVGGYNYVSWYQQHPGKAPKLMIYDVSKRPSGVPDRFSGSKSGNTASLTISGLQAEDEADYYCCSYAGSYTWVFGGGTKLTVL
B6: BD56-1378 (protein)
chain 1: QVQLIQSGTEVKRPGASVKVSCKVSGYFLSELSMHWVRQAPGKGLEWMGGFDLRDGETIFAQKFQGRVTMSEDTLTDTAYMEVRSLRSEDTAVYYCATGGSESFDTWGQGTQVTVSS
chain 2: DIQLTQSPSFLSASVGDRVTITCRASQGISSYLAWYQQKPGKAPKLLIYTASTLESGVPSRFSGSGSETEFTLTISSLQPEDFATYFCQHLHNFPFTFGPGTTVDIK
B7: BD56-1379 (protein)
chain 1: EVQLVESGGGLVQPGRSLRLSCAASGFTFDNYAMHWVRQAPGKGLEWVSGISWNNDNIGYADSVKGRFTISRDNAKNSLYLQMNSLRAEDTALYYCAKGGYYDMLTGAGYYYYYMDVWGQGTTVTVSS
chain 2: QSALTQPASVSGSPGQSITISCTGTSSDVGGYNYVSWYQQHPGKAPKLMIYDVNNRPSGVSNRFSGSKSGNTASLTISGLQAEDEADYYCSSYASTHYVFGTGTKVTVL
B8: BD56-1381 (protein)
chain 1: EGQLVESGGGLVQPGGSLRLSCAASGFPVSSNYMSWVRQTPGKGLEWVSVINRSGNTYYADYVKGRFTISRDNSKITLYLQMNSLRGEDTAVYYCASHSGDTGIIDYWGQGTLVTVSS
chain 2: B1 chain 2 with S7F, N30S, K31N, T76S, G84A, L94F, P96A, W97Y, G100A, V105L
B9: BD56-1383 (protein)
chain 1: QVQLVQSGAEVEKPGASVKVSCKASGYTFTSYYMHWVRQAPGQGLEWMGIINPSGGSTNYAQKFQGRVTMTRDTSTSTVYMELSSLRSEDTAVYYCARDSAEVRDYFDYWGQGTLVTVSS
chain 2: B5 chain 2 with Y51F
B10: BD58-0446 (protein)
chain 1: QITLKESGPTLVKPTQTLTLTCTFSGFSLSTSGVGVGWIRQPPGKALEWLALIYWDDDNRYSPSLKSRLAITKDTSKNQVVLILTNMDPVDTATYYCAHRISGKYFKGFDYWGQGTLVTVSS
chain 2: QSVLTQPPSVSAAPGQKVTISCSGSSSNIGNNYVSWYQQLPGTAPKLLIYDNNKRPSGIPDRFSGSKSGTSATLGITGLQTGDEADYYCGAWDTSLRAVLFGGGTKLTVL

Biological target: SARS-CoV-2 Omicron BA.1 spike pseudovirus
Assay: pseudovirus neutralization IC50; higher = weaker neutralization
Description: (§1)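 Single-round VSV luciferase pseudovirus mixed with antibody dilutions for 1 h and put on Huh-7 cells for about a day; IC50 from the dose curve.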

Row | Binder | pseudovirus neutralization IC50 [µg/mL]
1 | B1 | 0.00115
2 | B2 | > 10
3 | B3 | > 10
4 | B4 | 0.00384
5 | B5 | > 10
6 | B6 | > 10
7 | B7 | 0.00555
8 | B8 | > 10
9 | B9 | 1.4
10 | B10 | > 10

Biological target: SARS-CoV-2 Omicron BA.2 spike pseudovirus
Assay: as above
Description: as §1

Row | Binder | pseudovirus neutralization IC50 [µg/mL]
11 | B1 | 0.00077
12 | B2 | 0.314
13 | B3 | 0.00378
14 | B4 | 0.000632
15 | B5 | 0.421
16 | B6 | 0.0166
17 | B7 | 0.003
18 | B8 | 0.193
19 | B9 | 0.261
20 | B10 | > 10

Biological target: SARS-CoV-2 Omicron BA.2.75 spike pseudovirus
Assay: as above
Description: as §1

Row | Binder | pseudovirus neutralization IC50 [µg/mL]
21 | B1 | > 10
22 | B2 | > 10
23 | B3 | 0.00997
24 | B4 | 0.000284
25 | B5 | > 10
26 | B6 | 0.0328
27 | B7 | 0.00575
28 | B8 | > 10
29 | B9 | 0.298
30 | B10 | > 10

Biological target: SARS-CoV-2 Omicron BA.2.75.2 spike pseudovirus
Assay: as above
Description: as §1

Row | Binder | pseudovirus neutralization IC50 [µg/mL]
31 | B1 | > 10
32 | B2 | > 10
33 | B3 | 0.0841
34 | B4 | 0.0142
35 | B5 | > 10
36 | B6 | 0.142
37 | B7 | 0.0212
38 | B8 | > 10
39 | B9 | > 10
40 | B10 | > 10

Biological target: SARS-CoV-2 Omicron BA.5 spike pseudovirus
Assay: as above
Description: as §1

Row | Binder | pseudovirus neutralization IC50 [µg/mL]
41 | B1 | 0.124
42 | B2 | > 10
43 | B3 | 0.00888
44 | B4 | 0.000272
45 | B5 | > 10
46 | B6 | 0.0178
47 | B7 | 0.00736
48 | B8 | 0.187
49 | B9 | > 10
50 | B10 | > 10

Biological target: SARS-CoV-2 Omicron BM.1.1.1 spike pseudovirus
Assay: as above
Description: as §1

Row | Binder | pseudovirus neutralization IC50 [µg/mL]
51 | B1 | > 10
52 | B2 | > 10
53 | B3 | 0.0309
54 | B4 | 0.00429
55 | B5 | > 10
56 | B6 | 0.135
57 | B7 | 0.0546
58 | B8 | > 10
59 | B9 | > 10
60 | B10 | > 10

Biological target: SARS-CoV-2 Omicron BQ.1.1 spike pseudovirus
Assay: as above
Description: as §1

Row | Binder | pseudovirus neutralization IC50 [µg/mL]
61 | B1 | > 10
62 | B2 | > 10
63 | B3 | 0.0638
64 | B4 | 0.00257
65 | B5 | > 10
66 | B6 | 0.0252
67 | B7 | 0.0116
68 | B8 | > 10
69 | B9 | > 10
70 | B10 | > 10

Biological target: SARS-CoV-2 Omicron BR.2 spike pseudovirus
Assay: as above
Description: as §1

Row | Binder | pseudovirus neutralization IC50 [µg/mL]
71 | B1 | > 10
72 | B2 | > 10
73 | B3 | 0.0287
74 | B4 | 0.00716
75 | B5 | > 10
76 | B6 | 0.0196
77 | B7 | 0.00442
78 | B8 | > 10
79 | B9 | > 10
80 | B10 | > 10

Biological target: SARS-CoV-2 Omicron CA.1 spike pseudovirus
Assay: as above
Description: as §1

Row | Binder | pseudovirus neutralization IC50 [µg/mL]
81 | B1 | > 10
82 | B2 | > 10
83 | B3 | 0.0303
84 | B4 | 0.00588
85 | B5 | > 10
86 | B6 | 0.12
87 | B7 | 0.0289
88 | B8 | > 10
89 | B9 | > 10
90 | B10 | > 10

Biological target: SARS-CoV-2 Omicron XBB spike pseudovirus
Assay: as above
Description: as §1

Row | Binder | pseudovirus neutralization IC50 [µg/mL]
91 | B1 | > 10
92 | B2 | > 10
93 | B3 | 0.0358
94 | B4 | 0.00453
95 | B5 | > 10
96 | B6 | 0.103
97 | B7 | 0.0291
98 | B8 | > 10
99 | B9 | > 10
100 | B10 | > 10

Biological target: SARS-CoV-2 early D614G spike pseudovirus
Assay: as above
Description: as §1

Row | Binder | pseudovirus neutralization IC50 [µg/mL]
101 | B1 | > 10
102 | B2 | > 10
103 | B3 | > 10
104 | B4 | > 10
105 | B5 | > 10
106 | B6 | > 10
107 | B7 | > 10
108 | B8 | > 10
109 | B9 | > 10
110 | B10 | > 10
